Among the data in PubChem BioAssay AID555 (SRMLSC, 2006) are inhibition values, retold here.

Structures are written as SMILES. The entries are a selection whose mix differs from that of the whole data set. Calls of active or inactive are those of the source.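 The calls were made as follows: active = ranked among the strongest by inhibition in the single 10 µM screen, a fixed top-ranked set picked for dose follow-up; inactive = the rest, inconclusive results apart.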

By inhibition is commonly meant the change of the read-out against control, counted positive when it falls.

The test system of the assay is mevalonate kinase [Streptococcus pneumoniae D39]. Nature of the assay: S. pneumoniae MK inhibitors, primary screen, biochemical, PK/LDH-coupled NADH absorbance (AID 555). Particulars: purified MK, PK/LDH-coupled NADH absorbance 340 nm; at 10 µM; stronger effect = higher value.
Consider `N#CC1(Nc2ccccc2)CCN(CCc2ccccc2)CC1`, for which the inhibition is inactive: 2%. As to `COc1ccc(NC2CCN(CCc3ccccc3)CC2)c(OC)c1`, the inhibition was inactive: 1%. `O=C(OC1CN2CCC1CC2)C1c2ccccc2Oc2ccccc21` (configuration not stated): the inhibition is inactive: 12%.

Regarding `CCOc1ncccc1C(=O)NCC1(N2CCOCC2)CCCCC1`, the inhibition is inactive: 6%.

Take `CCC(CO)(C(=O)OC1CN2CCC1CC2)c1ccccc1` (configuration not stated): the inhibition is inactive: 3%. With `Fc1ccccc1NC1CCN(Cc2ccccc2)CC1`, the inhibition is active: 45%. For the compound `N/C(=N\O)c1c(N)no[n+]1[O-]`, the inhibition was inactive: 11%.
